Compound potency records, mixed from different reports. Data source: NIAID ChemDB in PubChem.

Common to all: toxicity to cultured cells; cells: MT-2; read-out: CC50

Rows are shuffled and stem from different studies. CCn is the concentration with n% toxicity to the cells. Blank or dashed fields: not listed here.

structure,read by,result
Cc1cccc(NC(=S)NCCc2ccccc2F)n1,MTT,>60 µM
O=c1[nH]c(=O)n([C@@H]2CO[C@H](CO)O2)cc1I,,>100 µM
O=C(O)C(O)c1ccccc1,,>300 µg/mL
Cc1cn([C@H]2C[C@H](CF)[C@@H](CO)O2)c(=O)[nH]c1=O,,>100 µM
C/C=C(\C)C(=O)O[C@@H]1[C@@H](C)[C@]2(O)[C@@H]3C=C(C)C(=O)[C@H]3CC(C=O)=C[C@H]2[C@@H]2C(C)(C)[C@]12OCC(C)C,luminescence,>50 µM
CCCOc1nc(N)nc2c1ncn2[C@@H]1C=C[C@H](CO)C1,,98 µM
C=C(C)[C@@H]1CC[C@]2(CCNC(C)(C)CN3CCN(C)CC3)CC[C@]3(C)[C@H](CC[C@@H]4[C@@]5(C)CC[C@H](OC(=O)CC(C)(C)C(=O)O)C(C)(C)[C@@H]5CC[C@]43C)[C@@H]12,XTT,3.2 µM
CCCCCCCC/C=C\CCCCCCCOCCOP(=O)(O)CO[C@H](CO)Cn1cnc2c(N)ncnc21,propidium iodide,0.2 µM
C=Cc1c(C)c2cc3[nH]c(cc4nc(cc5nc(cc1[nH]2)C(C)=C5CCC(=O)O)C(CCC(=O)O)=C4C)c(C)c3C=C,,15.8 µM
CN(C(=O)[C@H](Cc1ccccc1)NC(=O)NS(=O)(=O)N[C@@H](Cc1ccccc1)C(=O)N(C)c1ccc2scnc2c1)c1ccc2scnc2c1,XTT,100 µM
Cc1nccnc1-c1ccc2c(=O)n(-c3ccc(Cl)c4c(NS(C)(=O)=O)nn(C)c34)c(C(Cc3cc(F)cc(F)c3)NC(=O)Cn3nc(C(F)F)c4c3C(F)(F)[C@@H]3C[C@H]43)nc2c1,XTT,>0.5 µM
COc1ccc(N(C)C(=O)[C@H](Cc2ccccc2)NC(=O)NS(=O)(=O)N[C@@H](Cc2ccccc2)C(=O)N(C)c2ccc(OC)cc2C)cc1,XTT,33.3 µM
Cc1cccc(CS(=O)(=O)c2cccc[n+]2[O-])c1,,26 µg/mL
Cc1cn([C@@H]2O[C@H](CO)[C@@H](CF)[C@H]2O)c(=O)[nH]c1=O,,>100 µM
Cc1ccc(C)c(C(Cl)S(=O)(=O)c2cc(C)cc[n+]2[O-])c1,,>4 µg/mL
CCN(C(=O)[C@H](Cc1cc(F)cc(F)c1)NC(=O)CN1c2ccccc2N(CC(=O)N[C@@H](Cc2cc(F)cc(F)c2)C(=O)N(CC)c2ccc3oc(=O)n(CC)c3c2)S1(=O)=O)c1ccc2oc(=O)n(CC)c2c1,XTT,33.3 µM
Cc1ccnc2c1NC(=O)c1cccnc1N2C1CC1,MTT,50 µM
CN(C(=O)[C@H](Cc1cc(F)cc(F)c1)NC(=O)NS(=O)(=O)N[C@@H](Cc1cc(F)cc(F)c1)C(=O)N(C)c1cnc2scnc2c1)c1cnc2scnc2c1,XTT,100 µM
CCCCCCCCCCCCCCCCCCOCCOP(=O)(O)CO[C@H](CO)Cn1cnc2c(N)ncnc21,propidium iodide,0.03 µM
C=C1[C@@H](OC(C)=O)[C@H]2[C@@H](OC(C)=O)[C@](C)(OC(C)=O)C[C@]2(OC(C)=O)[C@H](OC(C)=O)[C@H](C)/C=C/C(C)(C)C(=O)[C@@H](OC(C)=O)[C@H]1OC(C)=O,propidium iodide / ATP / flow cytometry,>100 µM
Cc1cc2cc(C#N)cn2c(C)c1Nc1ccnc(Nc2ccc(C#N)cc2)n1,MTT,8.1 µM
CC(=O)NS(=O)(=O)c1ccc(NC(=S)NCCc2ccccc2F)cc1,MTT,37 µM
CC(C)CN(C[C@@H](O)[C@H](Cc1ccccc1)NC(=O)O[C@H]1CO[C@H]2OCC[C@H]21)S(=O)(=O)c1ccc2c(c1)OCO2,MTT,35.7 µM
CN(C(=O)[C@H](Cc1cc(F)cc(F)c1)NC(=O)Cn1c(=O)n(CC(=O)N[C@@H](Cc2cc(F)cc(F)c2)C(=O)N(C)c2ccc3scnc3c2)c2ccccc21)c1ccc2scnc2c1,XTT,100 µM
CC(C)CCC[C@@H](C)[C@H]1CC[C@H]2[C@@H]3CC[C@H]4C[C@@H](CCC=C(c5cc(Cl)c(O)c(C(=O)O)c5)c5cc(Cl)c(O)c(C(=O)O)c5)CC[C@]4(C)[C@H]3CC[C@]12C,,200 µM
O=c1nccc(NC(=S)NCCc2ccccc2F)[nH]1,MTT,>100 µM
Cc1cn([C@@H]2O[C@H](CO)[C@@H](CF)[C@@H]2O)c(=O)[nH]c1=O,,>100 µM
COc1ccc([C@@H]2CC(=O)c3c(O)cc(O[C@@H]4O[C@H](CO[C@@H]5O[C@@H](C)[C@H](OP(=O)(O)O)[C@@H](OP(=O)(O)O)[C@H]5O)[C@@H](OP(=O)(O)O)[C@H](OP(=O)(O)O)[C@H]4O)cc3O2)cc1O,,>500 µg/mL
Cc1ccc(C)c(CS(=O)(=O)c2ccccn2)c1,,28 µg/mL
COc1ccc(OC)c(CCNC(=S)Nc2ccnc(=O)[nH]2)c1F,MTT,>100 µM
Cc1ccc(C)c(C(C)S(=O)(=O)c2ccc(C)c[n+]2[O-])c1,,34 µg/mL
COc1cc(CCNC(=S)Nc2ccc(Cl)cn2)cc(OC)c1OC,MTT,>100 µM
CCCN(C(=O)[C@H](Cc1cc(F)cc(F)c1)NC(=O)CS(=O)(=O)N[C@@H](Cc1cc(F)cc(F)c1)C(=O)N(CCC)c1ccc2nccnc2c1)c1ccc2nccnc2c1,XTT,33.3 µM
CC(=O)N1CCCCC1C(NC(=O)C(=O)Nc1ccc(Cl)cc1)c1nc(C)c(CCO)s1,XTT,>84 µM

For reference, 2 entries again:

CC(=O)NS(=O)(=O)c1ccc(NC(=S)NCCc2ccccc2F)cc1 ; read by: MTT ; result: 37 µM
Cc1cccc(NC(=S)NCCc2ccccc2F)n1 ; read by: MTT ; result: >60 µM